Measurements as given in patent publication US12595505B2, “Compositions and methods for cellular phenotype assessment of a sample using confined volume arrays” (PATTERN BIOSCIENCE, INC., priority 2018, dated 2026).

Tested on: S. aureus, E. faecium, K. pneumoniae, E. coli, P. aeruginosa isolates
Test: Droplet-array antibiotic susceptibility testing (AST), categorical agreement against broth microdilution, by antibiotic over all pathogens
Assay type: cell-based
Parameters: key to Error Type: VME—very major error; R called S; ME—major error, S called R
Settings: for CA (Categorical Agreement): all pathogens pooled, susceptible/resistant call vs broth microdilution reference (CLSI), imaged over 4 hours; for Error Type: discordant calls vs broth microdilution reference

Compound | CA (Categorical Agreement) [%] | Error Type
NCC[C@H](O)C(=O)N[C@@H]1C[C@H](N)[C@@H](O[C@H]2O[C@H](CN)[C@@H](O)[C@H](O)[C@H]2O)[C@H](O)[C@H]1O[C@H]1O[C@H](CO)[C@@H](O)[C@H](N)[C@H]1O [Amikacin] | 100.0 | –
CO[C@@]1(NC(=O)Cc2cccs2)C(=O)N2C(C(=O)O)=C(COC(N)=O)CS[C@@H]21 [Cefoxitin] | 100.0 | –
CO/N=C(\C(=O)N[C@@H]1C(=O)N2C(C(=O)O)=C(CSc3nc(=O)c(=O)[nH]n3C)CS[C@H]12)c1csc(N)n1 [Ceftriaxone] | 95.7 | ME
CC[C@H]1OC(=O)[C@H](C)[C@@H](O[C@H]2C[C@@](C)(OC)[C@@H](O)[C@H](C)O2)[C@H](C)[C@@H](O[C@@H]2O[C@H](C)C[C@H](N(C)C)[C@H]2O)[C@](C)(O)C[C@@H](C)C(=O)[C@H](C)[C@@H](O)[C@]1(C)O [Erythromycin] | 100.0 | –
C[C@@H](O)[C@H]1C(=O)N2C(C(=O)O)=C(S[C@@H]3CN[C@H](C(=O)N(C)C)C3)[C@H](C)[C@H]12 [Meropenem] | 100.0 | –
NC[C@H]1O[C@H](O[C@H]2[C@H](O)[C@@H](O[C@H]3O[C@H](CO)[C@@H](O)[C@H](N)[C@H]3O)[C@H](N)C[C@@H]2N)[C@H](N)C[C@@H]1O [Tobramycin] | 100.0 | –
CN[C@H](CC(C)C)C(=O)N[C@H]1C(=O)N[C@@H](CC(N)=O)C(=O)N[C@H]2C(=O)N[C@H]3C(=O)N[C@H](C(=O)N[C@H](C(=O)O)c4cc(O)cc(O)c4-c4cc3ccc4O)[C@H](O)c3ccc(c(Cl)c3)Oc3cc2cc(c3O[C@@H]2O[C@H](CO)[C@@H](O)[C@H](O)[C@H]2O[C@H]2C[C@](C)(N)[C@H](O)[C@H](C)O2)Oc2ccc(cc2Cl)[C@H]1O [Vancomycin] | 96.0 | ME
Gentamicin | 100.0 | –
